Laboratory results: patent US20170253607A1

Tests used:
HIV-1 PR = HIV-1 PR (Human immunodeficiency virus type 1 group M subtype B, UniProt P04585); assay: HIV-protease inhibitory activity assay (FRET peptide substrate); type: biochemical; settings: Test Example 1
[1] = Evaluation of total body clearance (CLtot), intravenous administration; type: in vivo, Sprague-Dawley (SD); settings: rat (SD), intravenous administration 0.5-10 mg/kg; CLtot = dose/AUC
[2] = Protein binding test (equilibrium dialysis, unbound ratio fu in serum); type: in vitro ADME; settings: rat serum, equilibrium dialysis 24 hours, 37° C., 2 μg/mL

For `COc1ccc(S(=O)(=O)N(CC(C)C)C[C@@H](O)[C@H](Cc2ccc(NCc3cc(C4CC4)ccc3-c3sc4c(c3C(=O)O)CC(C)(C)CC4)cc2)NC(=O)O[C@H]2CO[C@@]3(C)OCC[C@@H]23)cc1`, the IC50 (HIV-1 PR) was 2.82 nM and the rat_CLt [1] was 0.0127 L/h/kg.
In the case of `CC1(C)CCc2sc(-c3ccccc3COc3ccc(C[C@H](NC(=O)O[C@H]4CO[C@@]5(C)OCC[C@@H]45)[C@H](O)CN(CC4CCCC4)S(=O)(=O)c4ccc5c(c4)CCO5)cc3)c(C(=O)O)c2C1`, the IC50 (HIV-1 PR) is reported as 5.59 nM, the rat_fu [2] is reported as under 0.1% and the rat_CLt [1] is reported as 0.084 L/h/kg.
Work on `COc1ccc(S(=O)(=O)N(CC(C)C)C[C@@H](O)[C@H](Cc2ccc(OCc3cc(C(F)(F)F)ccc3-c3sc4c(c3C(=O)O)CC(C)(C)CC4)cc2)NC(=O)O[C@H]2CO[C@@]3(C)OCC[C@@H]23)cc1` yielded an IC50 (HIV-1 PR) of 3.32 nM, a rat_fu [2] of under 0.1% and a rat_CLt [1] of 0.0171 L/h/kg.
For `COc1ccc(S(=O)(=O)N(CC(C)C)C[C@@H](O)[C@H](Cc2ccc(NCc3cc(N4CCCC4=O)ccc3-c3sc4c(c3C(=O)O)CC(C)(C)CC4)cc2)NC(=O)O[C@H]2CO[C@@]3(C)OCC[C@@H]23)cc1`, the IC50 (HIV-1 PR) was 1.96 nM and the rat_CLt [1] was 0.00642 L/h/kg.
Work on `COc1ccc(S(=O)(=O)N(CC(C)C)C[C@@H](O)[C@H](Cc2ccccc2)NC(=O)O[C@H]2CO[C@@]3(COC(=O)NCc4ccc(-c5sc6c(c5C(=O)O)CC(C)(C)CC6)cc4)OCC[C@@H]23)cc1` yielded an IC50 (HIV-1 PR) of 5.25 nM, a rat_fu [2] of under 0.1% and a rat_CLt [1] of 0.26 L/h/kg.
Molecule `COc1ccc(S(=O)(=O)N(CC(C)C)C[C@@H](O)[C@H](Cc2ccc(NC[C@@H]3CCCCN3C(=O)Nc3sc4c(c3C(=O)O)CC(C)(C)CC4)cc2)NC(=O)O[C@H]2CO[C@@]3(C)OCC[C@@H]23)cc1` has an IC50 (HIV-1 PR) of 1.93 nM and a rat_CLt [1] of 0.0419 L/h/kg.
For `COc1ccc(S(=O)(=O)N(CC(C)C)C[C@@H](O)[C@H](Cc2ccc(NCc3nc(N4CCCC4)ccc3-c3sc4c(c3C(=O)O)CC(C)(C)CC4)cc2)NC(=O)O[C@H]2CO[C@@]3(C)OCC[C@@H]23)cc1`, the IC50 (HIV-1 PR) was 1.73 nM and the rat_CLt [1] was 0.00317 L/h/kg.
Molecule `COc1ccc(S(=O)(=O)N(CC(C)C)C[C@@H](O)[C@H](Cc2ccc(NC[C@H]3CCCC[C@H]3c3sc4c(c3C(=O)O)CC(C)(C)CC4)cc2)NC(=O)O[C@H]2CO[C@H]3OCC[C@H]32)cc1` has an IC50 (HIV-1 PR) of 2.64 nM and a rat_CLt [1] of 0.0223 L/h/kg.
Molecule `COc1ccc(S(=O)(=O)N(CC(C)C)C[C@@H](O)[C@H](Cc2ccc(N(C)Cc3nc(N4CCCC4)sc3-c3sc4c(c3C(=O)O)CC(C)(C)CC4)cc2)NC(=O)O[C@H]2CO[C@@]3(C)OCC[C@@H]23)cc1` has an IC50 (HIV-1 PR) of 2.01 nM and a rat_CLt [1] of 0.0496 L/h/kg.
With `COc1ccc(S(=O)(=O)N(CC(C)C)C[C@@H](O)[C@H](Cc2ccc(NCC3CCCCC3C(=O)Nc3sc4c(c3C(=O)O)CC(C)(C)CC4)cc2)NC(=O)O[C@H]2CO[C@@]3(C)OCC[C@@H]23)cc1` (single isomer, unassigned) [I-623] the IC50 (HIV-1 PR) was 4.24 nM and the rat_CLt [1] was 0.11 L/h/kg.
`COc1ccc(S(=O)(=O)N(CC(C)C)C[C@@H](O)[C@H](Cc2ccc(N3CC[C@H](Oc4cc5ccccc5cc4C(=O)Nc4sc5c(c4C(=O)O)CC(C)(C)CC5)C3)cc2)NC(=O)O[C@H]2CO[C@@]3(C)OCC[C@@H]23)cc1` gave an IC50 (HIV-1 PR) of 5.26 nM and a rat_CLt [1] of 0.00171 L/h/kg.
With `COc1ccc(S(=O)(=O)N(CC(C)C)C[C@@H](O)[C@H](Cc2ccc(NCc3cc(-c4ccc5ccccc5c4)ccc3-c3sc4c(c3C(=O)O)CC(C)(C)CC4)cc2)NC(=O)O[C@H]2CO[C@@]3(C)OCC[C@@H]23)cc1` the IC50 (HIV-1 PR) was 4.89 nM and the rat_CLt [1] was 0.00235 L/h/kg.
With `COc1ccc(S(=O)(=O)N(CC(C)C)C[C@@H](O)[C@H](Cc2ccc(CNC(=O)c3cc(Cl)cc(Cl)c3O)cc2)NC(=O)O[C@H]2CO[C@@]3(C)OCC[C@@H]23)cc1` the IC50 (HIV-1 PR) was 1.69 nM.
Molecule `COc1ccc(S(=O)(=O)N(CC(C)C)C[C@@H](O)[C@H](Cc2ccc(OCc3ccccc3-c3sc4c(c3C(=O)O)CC(C)(C)CC4)cc2)NC(=O)O[C@H]2CO[C@H]3OC[C@H](OCCO)[C@H]32)cc1` has an IC50 (HIV-1 PR) of 1.3 nM.
Work on `COc1ccc(S(=O)(=O)N(CC(C)C)C[C@@H](O)[C@H](Cc2ccc(N(C)Cc3ccccc3-c3ccc(Nc4sc5c(c4C(=O)O)CC(C)(C)CC5)cc3)cc2)NC(=O)O[C@H]2CO[C@@]3(C)OCC[C@@H]23)cc1` yielded an IC50 (HIV-1 PR) of 51 nM.
For `COc1ccc(S(=O)(=O)N(CC(C)C)C[C@@H](O)[C@H](Cc2ccccc2)NC(=O)O[C@H]2CO[C@@]3(CNCc4sc5c(c4C(=O)O)CC(C)(C)CC5)OCC[C@@H]23)cc1`, the IC50 (HIV-1 PR) was 0.72 nM.
With `COc1ccc(S(=O)(=O)N(CC(C)C)C[C@@H](O)[C@H](Cc2ccc(OCc3ccc4cc(-c5sc6c(c5C(=O)O)CCC(C)(C)C6)ccc4c3)cc2)NC(=O)O[C@H]2CO[C@@]3(C)OCC[C@@H]23)cc1` the IC50 (HIV-1 PR) was 7.42 nM.
`COc1ccc(S(=O)(=O)N(CC(C)C)C[C@@H](O)[C@H](Cc2ccc(OCc3ccccc3-c3ccc4c(C(=O)O)c(C5=CCC(C)(C)CC5)sc4c3)cc2)NC(=O)O[C@H]2CO[C@@]3(C)OCC[C@@H]23)cc1` showed an IC50 (HIV-1 PR) of 3.14 nM.
In the case of `CC(C)CN(C[C@@H](O)[C@H](Cc1ccc(OCc2ccc3ccccc3c2C(=O)O)cc1)NC(=O)O[C@H]1CO[C@@]2(C)OCC[C@@H]12)S(=O)(=O)c1ccc2ncsc2c1`, the IC50 (HIV-1 PR) is reported as 0.88 nM.
Molecule `COc1ccc(S(=O)(=O)N(CC(C)C)C[C@@H](O)[C@H](Cc2ccc(NCc3ccccc3C(=O)Nc3sc4c(c3C(=O)O)CC(C)(C)CC4)cc2)NC(=O)O[C@H]2CO[C@H]3OCC[C@H]32)cc1` has an IC50 (HIV-1 PR) of 2.64 nM and a rat_CLt [1] of 0.00499 L/h/kg.
With `COc1ccc(S(=O)(=O)N(CC(C)C)C[C@@H](O)[C@H](Cc2ccc(OCc3ccccc3-c3sc4c(c3C(=O)O)CC(=O)CC4)cc2)NC(=O)O[C@H]2CO[C@@]3(C)OCC[C@@H]23)cc1` the IC50 (HIV-1 PR) was 0.75 nM.
`COc1ccc(S(=O)(=O)N(CC(C)C)C[C@@H](O)[C@H](Cc2ccc(OCc3ccccc3-c3sc4c(c3C(=O)O)Cc3ccccc3-4)cc2)NC(=O)O[C@H]2CO[C@@]3(C)OCC[C@@H]23)cc1` showed an IC50 (HIV-1 PR) of 1.02 nM.
`COc1ccc(S(=O)(=O)N(CC(C)C)C[C@@H](O)[C@H](Cc2ccc(NCc3cc(-c4ccccc4)ccc3-c3sc4c(c3C(=O)O)CC(C)(C)CC4)cc2)NC(=O)O[C@H]2CO[C@@]3(C)OCC[C@@H]23)cc1` gave an IC50 (HIV-1 PR) of 4.06 nM and a rat_CLt [1] of 0.00284 L/h/kg.
`COc1ccc(S(=O)(=O)N(CC(C)C)C[C@@H](O)[C@H](Cc2ccc(NC[C@@H]3CCCC[C@@H]3c3sc4c(c3C(=O)O)CC(C)(C)CC4)cc2)NC(=O)O[C@H]2CO[C@H]3OCC[C@H]32)cc1` showed an IC50 (HIV-1 PR) of 2.57 nM.
Work on `COc1ccc(S(=O)(=O)N(CC(C)C)C[C@@H](O)[C@H](Cc2ccc(OCc3ccccc3-c3sc4c(c3C(=O)O)CCC4)cc2)NC(=O)O[C@H]2CO[C@@]3(C)OCC[C@@H]23)cc1` yielded an IC50 (HIV-1 PR) of 3.08 nM.
Molecule `COc1ccc(S(=O)(=O)N(CC(C)C)C[C@@H](O)[C@H](Cc2ccc(N(C)CC3CCCCC3C(=O)Nc3sc4c(c3C(=O)O)CC(C)(C)CC4)cc2)NC(=O)O[C@H]2CO[C@@]3(C)OCC[C@@H]23)cc1` (single isomer, unassigned) has an IC50 (HIV-1 PR) of 3.81 nM and a rat_CLt [1] of 0.0106 L/h/kg.
`CC(C)CN(C[C@@H](O)[C@H](Cc1ccccc1)NC(=O)O[C@H]1CO[C@@]2(C)OCC[C@@H]12)S(=O)(=O)c1ccc2nc(NCc3cccc(-c4sc5c(c4C(=O)O)CC(C)(C)CC5)c3)sc2c1` gave an IC50 (HIV-1 PR) of 2.22 nM.
`CC(C)CN(C[C@@H](O)[C@H](Cc1ccc(OCc2ccc(-c3ccccc3)cc2C(N)=O)cc1)NC(=O)O[C@H]1CO[C@@]2(C)OCC[C@@H]12)S(=O)(=O)c1ccc2ncsc2c1` gave an IC50 (HIV-1 PR) of 1.07 nM.
`CC(C)CN(C[C@@H](O)[C@H](Cc1ccc(OCc2ccccc2-c2sc3c(c2C(=O)O)CC(C)(C)CC3)cc1)NC(=O)O[C@H]1CO[C@@]2(C)OCC[C@@H]12)S(=O)(=O)c1ccc2nc(N3CCCC3)sc2c1` gave an IC50 (HIV-1 PR) of 17.7 nM.
In the case of `COc1ccc(S(=O)(=O)N(CC(C)C)C[C@@H](O)[C@H](Cc2ccc(NCc3ncccc3-c3ccccc3-c3sc4c(c3C(=O)O)CC(C)(C)CC4)cc2)NC(=O)O[C@H]2CO[C@@]3(C)OCC[C@@H]23)cc1`, the IC50 (HIV-1 PR) is reported as 1.71 nM.
With `COc1ccc(S(=O)(=O)N(CC(C)C)C[C@@H](O)[C@H](Cc2ccc(NCc3cc(-c4ccncc4)ccc3-c3sc4c(c3C(=O)O)CC(C)(C)CC4)cc2)NC(=O)O[C@H]2CO[C@@]3(C)OCC[C@@H]23)cc1` the IC50 (HIV-1 PR) was 1.9 nM and the rat_CLt [1] was 0.00396 L/h/kg.
`CC(C)CN(C[C@@H](O)[C@H](Cc1ccc(OCc2ccc(-c3ccccc3)cc2C(=O)O)cc1)NC(=O)O[C@H]1CO[C@@]2(C)OCC[C@@H]12)S(=O)(=O)c1ccc2ncsc2c1` gave an IC50 (HIV-1 PR) of 1.28 nM.
Work on `COc1ccc(S(=O)(=O)N(CC(C)C)C[C@@H](O)[C@H](Cc2ccc(Nc3nccc(-c4sc5c(c4C(=O)O)CC(C)(C)CC5)n3)cc2)NC(=O)O[C@H]2CO[C@@]3(C)OCC[C@@H]23)cc1` yielded an IC50 (HIV-1 PR) of 1.83 nM.
For `COc1ccc(S(=O)(=O)N(CC(C)C)C[C@@H](O)[C@H](Cc2ccc(OCc3ccccc3-c3sc4c(c3C(=O)O)CCC(F)(F)C4)cc2)NC(=O)O[C@H]2CO[C@@]3(C)OCC[C@@H]23)cc1`, the IC50 (HIV-1 PR) was 0.89 nM.
`COc1ccc(S(=O)(=O)N(CC(C)C)C[C@@H](O)[C@H](Cc2ccc(OCc3ccccc3-c3sc4c(c3C(=O)O)CCCCCC4)cc2)NC(=O)O[C@H]2CO[C@@]3(C)OCC[C@@H]23)cc1` gave an IC50 (HIV-1 PR) of 0.87 nM.
Molecule `COc1ccc(S(=O)(=O)N(CC(C)C)C[C@@H](O)[C@H](Cc2ccc(NCc3cc(-c4ccc(C(F)(F)F)cc4)ccc3-c3sc4c(c3C(=O)O)CC(C)(C)CC4)cc2)NC(=O)O[C@H]2CO[C@@]3(C)OCC[C@@H]23)cc1` has an IC50 (HIV-1 PR) of 5.07 nM and a rat_CLt [1] of 0.0022 L/h/kg.
For `COc1ccc(S(=O)(=O)N(CC(C)C)C[C@@H](O)[C@H](Cc2ccc(NCc3ccc(C#N)c(-c4sc5c(c4C(=O)O)CC(C)(C)CC5)c3)cc2)NC(=O)O[C@H]2CO[C@@]3(C)OCC[C@@H]23)cc1`, the IC50 (HIV-1 PR) was 1.34 nM.
With `COc1ccc(S(=O)(=O)N(CC(C)C)C[C@@H](O)[C@H](Cc2ccc(Cn3c(=O)c4c5c(sc4c4ccccc43)CCC(C)(C)C5)cc2)NC(=O)O[C@H]2CO[C@@]3(C)OCC[C@@H]23)cc1` the IC50 (HIV-1 PR) was 6.34 nM.
For `CC(C)CN(C[C@@H](O)[C@H](Cc1ccccc1)NC(=O)O[C@H]1CO[C@@]2(C)OCC[C@@H]12)S(=O)(=O)c1ccc(NCc2ccccc2-c2sc3c(c2C(=O)O)CC(C)(C)CC3)cc1`, the IC50 (HIV-1 PR) was 1.22 nM.
`COc1ccc(S(=O)(=O)N(CC(C)C)C[C@@H](O)[C@H](Cc2ccc(N3CC[C@@H](Oc4ccc(-c5sc6c(c5C(=O)O)CC(C)(C)CC6)c(C)c4)C3)cc2)NC(=O)O[C@H]2CO[C@@]3(C)OCC[C@@H]23)cc1` showed an IC50 (HIV-1 PR) of 6.83 nM and a rat_CLt [1] of 0.107 L/h/kg.
